From PMC8237303 (Heliyon, 2021)

The chains behind the UniProt entries cited, without tags or fusion partners.
UniProt Q02294, whole entry: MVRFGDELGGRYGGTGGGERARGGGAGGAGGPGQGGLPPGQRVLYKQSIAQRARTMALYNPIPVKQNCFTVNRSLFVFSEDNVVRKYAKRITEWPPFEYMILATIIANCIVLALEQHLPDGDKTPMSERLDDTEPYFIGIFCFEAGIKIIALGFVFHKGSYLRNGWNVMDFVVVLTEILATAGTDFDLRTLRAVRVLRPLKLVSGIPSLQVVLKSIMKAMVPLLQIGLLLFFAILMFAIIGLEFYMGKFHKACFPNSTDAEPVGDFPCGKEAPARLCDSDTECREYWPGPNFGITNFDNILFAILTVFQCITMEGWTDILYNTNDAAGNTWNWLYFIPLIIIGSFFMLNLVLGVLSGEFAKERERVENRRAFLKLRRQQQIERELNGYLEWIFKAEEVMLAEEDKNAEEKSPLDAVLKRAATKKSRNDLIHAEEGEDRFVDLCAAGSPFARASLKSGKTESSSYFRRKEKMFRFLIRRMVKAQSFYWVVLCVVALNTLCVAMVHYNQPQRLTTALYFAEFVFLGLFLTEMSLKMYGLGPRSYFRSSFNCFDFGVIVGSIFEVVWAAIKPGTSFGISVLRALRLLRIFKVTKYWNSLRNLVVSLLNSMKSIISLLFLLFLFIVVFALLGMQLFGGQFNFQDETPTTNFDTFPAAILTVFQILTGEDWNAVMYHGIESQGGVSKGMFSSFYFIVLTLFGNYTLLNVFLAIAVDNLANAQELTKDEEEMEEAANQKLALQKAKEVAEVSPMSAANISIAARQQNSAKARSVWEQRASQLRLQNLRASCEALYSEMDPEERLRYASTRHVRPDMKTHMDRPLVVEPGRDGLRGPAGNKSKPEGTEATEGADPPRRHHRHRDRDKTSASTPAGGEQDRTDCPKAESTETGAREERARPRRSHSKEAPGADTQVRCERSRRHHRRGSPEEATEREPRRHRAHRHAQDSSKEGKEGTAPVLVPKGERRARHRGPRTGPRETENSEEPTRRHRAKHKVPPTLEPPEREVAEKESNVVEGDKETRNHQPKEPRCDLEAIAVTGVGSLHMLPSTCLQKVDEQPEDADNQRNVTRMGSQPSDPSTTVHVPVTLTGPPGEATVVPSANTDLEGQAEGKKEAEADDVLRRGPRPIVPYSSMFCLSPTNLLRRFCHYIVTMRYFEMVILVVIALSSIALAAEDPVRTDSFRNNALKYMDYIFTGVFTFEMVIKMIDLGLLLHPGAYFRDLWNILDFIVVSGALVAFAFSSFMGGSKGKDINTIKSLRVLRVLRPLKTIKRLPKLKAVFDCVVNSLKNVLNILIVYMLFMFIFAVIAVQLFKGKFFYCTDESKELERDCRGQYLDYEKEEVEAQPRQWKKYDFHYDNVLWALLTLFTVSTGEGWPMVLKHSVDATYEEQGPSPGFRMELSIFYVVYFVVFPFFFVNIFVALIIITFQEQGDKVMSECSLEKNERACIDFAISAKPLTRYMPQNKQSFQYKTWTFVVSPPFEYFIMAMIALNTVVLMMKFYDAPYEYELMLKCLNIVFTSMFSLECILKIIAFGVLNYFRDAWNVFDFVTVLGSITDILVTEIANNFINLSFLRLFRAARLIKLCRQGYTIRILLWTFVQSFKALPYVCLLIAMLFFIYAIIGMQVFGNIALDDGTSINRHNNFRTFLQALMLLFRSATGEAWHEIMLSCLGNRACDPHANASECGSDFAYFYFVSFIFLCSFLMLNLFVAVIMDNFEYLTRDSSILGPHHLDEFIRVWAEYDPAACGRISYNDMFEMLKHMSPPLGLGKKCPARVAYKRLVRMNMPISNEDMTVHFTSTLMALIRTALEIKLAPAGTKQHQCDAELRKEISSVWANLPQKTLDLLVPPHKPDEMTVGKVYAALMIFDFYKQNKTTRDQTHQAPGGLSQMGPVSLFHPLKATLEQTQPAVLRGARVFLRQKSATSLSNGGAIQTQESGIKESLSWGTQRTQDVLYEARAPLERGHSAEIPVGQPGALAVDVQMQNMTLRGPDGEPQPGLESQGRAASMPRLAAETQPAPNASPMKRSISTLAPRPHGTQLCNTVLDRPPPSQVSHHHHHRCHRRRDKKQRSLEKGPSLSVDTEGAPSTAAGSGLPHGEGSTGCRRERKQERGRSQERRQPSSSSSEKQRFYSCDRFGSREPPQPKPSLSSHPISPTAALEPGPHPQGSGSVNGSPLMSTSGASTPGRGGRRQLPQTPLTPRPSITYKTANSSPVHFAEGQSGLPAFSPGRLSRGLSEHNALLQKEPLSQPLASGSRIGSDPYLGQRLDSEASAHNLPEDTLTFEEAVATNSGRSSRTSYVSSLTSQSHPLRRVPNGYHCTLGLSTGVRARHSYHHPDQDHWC

Biological target: Ca Channel (Type N) (Rattus norvegicus, UniProt Q02294)
Format: binding

## ω-Conotoxin GVIA
  Inhibition by a positive substance (%): 100%
